# From article PMC6562043
# Molecular target: synthesized human Aβ42 peptide (human) (UniProt P05067)
substance,measurement,value
mouse PrP^A116V (transgene of TgGSS and TgAD/GSS mice) (from UniProt P04925 23-230),PrP bound to 70 pmol coated Aβ42,4.1 pmol
same,"binding relative to mouse PrP^C, corrected for PrP expression",10.8%
